Compound potency records, mixed from different reports. Data source: NIAID ChemDB in PubChem.

All rows: tests in culture; organism: HIV-1

Conditions beyond the fields shown may differ between rows. Two numbers with a dash give a range or band. ECn is the concentration giving n% inhibition of infection, replication or growth. An empty or dashed field is not shown.

SMILES,conditions,cells,endpoint,strain or isolate,mutations,method,value
CC(C)C1=C2[C@H]3CC[C@@H]4[C@@]5(C)CC[C@H](OC(=O)CC(C)(C)C(=O)O)C(C)(C)[C@@H]5CC[C@@]4(C)[C@]3(C)CC[C@@]2(NC(=O)Nc2cnn(C)c2)CC1=O,30% human serum,MT-2,EC50,IIIB,,RT activity,<0.199 µM
CCN1c2ncc(CCOc3ccc(-c4cccc[n+]4[O-])cc3C)cc2C(=O)N(C)c2cccnc21,,C8166,EC50,IIIB,,p24,<0.01 µM
CCc1c(Cc2cc(C)cc(C)c2)n(COCC#Cc2ccc(NC(=O)C(F)(F)F)cc2)c(=O)[nH]c1=O,,MT-4,EC50,IIIB,Y181C,MTT,1.5 µM
CC(C)CN(C[C@@H](O)[C@H](Cc1ccccc1)NC(=O)O[C@H]1CCOC1)S(=O)(=O)c1ccc(N)cc1,,MT-4,EC50,T13632,V32I I50V L76V V82I,reporter gene,12111 nM
CCC(C)[C@@H](C(=O)N[C@@H](Cc1ccccc1)[C@H](O)CN(CC(C)C)S(=O)(=O)c1ccc(/C=N/O)cc1)N1CCN(Cc2cccc(C)n2)C1=O,50% human serum,MT-4,EC50,,,cytopathic effect / MTT,0.024 µM
CC(C)C1=C2[C@H]3CC[C@@H]4[C@@]5(C)CC[C@H](OC(=O)[C@H]6C[C@@H](C(=O)O)C6(C)C)C(C)(C)[C@@H]5CC[C@@]4(C)[C@]3(C)CC[C@@]2([C@@H](O)CNCC(C)(C)NC(=O)c2ccc(N3CCCCC3)cc2)CC1=O,,MT-2,EC50,92HT599,,p24 / ELISA,<1 µM
COc1cc(-c2ccc(N=Nc3ccc4c(S(=O)(=O)O)cc(S(=O)(=O)O)c(N)c4c3O)c(OC)c2)ccc1N=Nc1ccc2c(S(=O)(=O)O)cc(S(=O)(=O)O)c(N)c2c1O,,CEM + CEM-SS,EC50,KELL,,cytopathic effect / XTT,0.8 µM
Cc1cccc(C(C)c2c(C(C)C)c(=O)[nH]c(=O)n2COCc2ccccc2)c1,,MT-4,EC50,IIIB,E138K,MTT,1.06 µM
Clc1cc(CN2CCCNCCNCCCNCC2)cc(Cl)n1,,MT-4,EC50,NL4-3 X4,,p24,1.8 µM
CCc1c(Cc2cc(C)cc(C)c2)n(COCc2cn(-c3cccnc3)nn2)c(=O)[nH]c1=O,,MT-4,EC50,IIIB,EFV-resistant (K103R V179D P225H),MTT,62 µM
CC(C)n1c(=O)c(O)c2n(c1=O)CCN(Cc1cc3ccccc3cn1)C2=O,,MT-4,EC50,,,p24,<10 µM
CCC(C)[C@@H](C(=O)N[C@@H](Cc1ccccc1)[C@H](O)CN(CC(C)C)S(=O)(=O)c1ccc(/C=N/O)cc1)N1CCN(Cc2c(C)ccnc2C)C1=O,,MT-4,EC50,A17 (LPV-resistant),PR-L10F V32I M46I I47V Q68E I84V,cytopathic effect / MTT,0.006 µM
C[C@@H]1CN(C(=O)c2ccccc2)CCN1C(=O)C(=O)c1c[nH]c2c(NC(=O)NCCC(=O)O)cccc12,,HeLa,EC50,,,luciferase / reporter gene,<1 µM
CC(C)C1=C2[C@H]3CC[C@@H]4[C@@]5(C)CC[C@H](OC(=O)[C@@H]6C[C@H](C(=O)O)C6(C)C)C(C)(C)[C@@H]5CC[C@@]4(C)[C@]3(C)CC[C@@]2(CCNCc2ccc(Cl)cc2)CC1=O,,MT-2,EC50,92HT599,,p24 / ELISA,<1 µM
CC(C)C1=C2C3CCC4[C@@]5(C)CC[C@H](OC(=O)CC(C)(C)C(=O)O)C(C)(C)C5CC[C@@]4(C)[C@]3(C)CC[C@@]2(NC(=O)NCc2cccs2)CC1=O,30% human serum,MT-2,EC50,IIIB,,RT activity,<0.199 µM
CCC(C)[C@@H](C(=O)N[C@@H](Cc1ccccc1)[C@H](O)CN(CC(C)C)S(=O)(=O)c1ccc(/C=N/O)cc1)N1CCN(Cc2ccc(C)nc2)C1=O,50% human serum,MT-4,EC50,,,cytopathic effect / MTT,0.025 µM
CCc1c(Cc2cc(C)cc(C)c2)n(COCC#Cc2cc3ccccc3c3ccccc23)c(=O)[nH]c1=O,,MT-4,EC50,IIIB,Y181C,MTT,>80 µM
O=C1c2c(O)c(=O)n(CC3COCCN3Cc3ccccc3)c(=O)n2CCN1Cc1ccc(F)cc1,,MT-4,EC50,,,p24,<10 µM
Nc1nc(NC2CC2)c2ncn([C@H]3C=C[C@@H](CO)C3)c2n1,,MT-4,EC90,XM-Q151M,RT-A62V V75I F77C F116Y Q151M,p24,4.6 µM
Cc1c(C(C)(O)c2cccc(F)c2)n(COCc2ccccc2)c(=O)[nH]c1=O,,MT-4,EC50,IIIB,,MTT,46.23 µM
CCN1C(=O)NC(=O)C(C(C)C)C1CC1CC(C)CC(C#N)C1=O,,C8166,EC50,,V106M,p24 / ELISA,0.09031 µM
CCC(C)[C@@H](C(=O)N[C@@H](Cc1ccccc1)[C@H](O)CN(CC(C)C)S(=O)(=O)c1ccc(/C=N/O)cc1)N1CCN(Cc2cccc(COC)n2)C1=O,,MT-4,EC50,,,cytopathic effect / MTT,0.003 µM
C[C@@H]1CN(C(=O)c2ccccc2)CCN1C(=O)C(=O)c1c[nH]c2c(NC(=O)NCCCCCCCCNC(=O)Nc3ccc(B(O)O)cc3)cccc12,,HeLa,EC50,,,luciferase / reporter gene,<1 µM
CCN1c2ncc(CCOc3ccc(-c4ccc(CC(=O)O)cc4)cc3CO)cc2C(=O)N(C)c2cccnc21,,C8166,EC50,IIIB,,p24,<0.01 µM
Cc1nnc(CNC(=O)N[C@@]23CC[C@]4(C)C(CCC5[C@@]6(C)CC[C@H](OC(=O)CC(C)(C)C(=O)O)C(C)(C)C6CC[C@]54C)C2=C(C(C)C)C(=O)C3)o1,30% human serum,MT-2,EC50,IIIB,,RT activity,<0.199 µM
CCc1c(Cc2cc(C)cc(C)c2)n(COC/C(=C/Sc2ccccc2)Sc2ccccc2)c(=O)[nH]c1=O,,MT-4,EC50,IIIB,EFV-resistant (K103R V179D P225H),MTT,>60 µM
CCOC(=O)c1ccccc1NC(=O)Nc1cccc2c(C(=O)C(=O)N3CCC(=C(C#N)c4ccccc4)CC3)c[nH]c12,,HeLa,EC50,,,luciferase / reporter gene,<1 µM
O=C1c2c(O)c(=O)n(C3CCS(=O)(=O)c4ccccc43)c(=O)n2CCN1Cc1ccc(F)cc1,,MT-4,EC50,,,p24,<10 µM
CC(C)C1=C2[C@H]3CC[C@@H]4[C@@]5(C)CC[C@H](OC(=O)[C@H]6C[C@@H](C(=O)O)C6(C)C)C(C)(C)[C@@H]5CC[C@@]4(C)[C@]3(C)CC[C@@]2([C@@H](O)CNCC(C)(C)NC(=O)c2ccc(S(C)(=O)=O)cc2)CC1=O,,MT-2,EC50,92HT599,,p24 / ELISA,<1 µM
CC(C)C1=C2C3CCC4[C@@]5(C)CC[C@H](OC(=O)CC(C)(C)C(=O)O)C(C)(C)C5CC[C@@]4(C)[C@]3(C)CC[C@@]2(NC(=O)NC2CCN(C)CC2)CC1=O,30% human serum,MT-2,EC50,IIIB,,RT activity,<0.199 µM
CCCc1cc(=O)oc2c3c(c4c(c12)OC(C)(C)CC4)O[C@@H](C)[C@H](C)[C@@H]3O,,PBMC,EC50,ROJO(SI),,RT activity,0.5 µM
Nc1nc(=O)n([C@H]2C=C[C@@H](CO)O2)cc1F,,MT-4,EC50,NL4-3 WT,,p24,<1.2 µM
CCC(C)[C@@H](C(=O)N[C@@H](Cc1ccccc1)[C@H](O)CN(CC1CCCC1)S(=O)(=O)c1ccc(/C=N/O)cc1)N1CCN(Cc2cccc(C)n2)C1=O,50% human serum,MT-4,EC50,,,cytopathic effect / MTT,0.004 µM
CC(C)C1=C2[C@H]3CC[C@@H]4[C@@]5(C)CC[C@H](OC(=O)[C@H]6C[C@@H](C(=O)O)C6(C)C)C(C)(C)[C@@H]5CC[C@@]4(C)[C@]3(C)CC[C@@]2([C@@H](O)CNC(=O)C(F)NC(=O)c2ccc(Cl)cc2)CC1=O,,MT-2,EC50,92HT599,,p24 / ELISA,<1 µM
CCc1c(Cc2cc(C)cc(C)c2)n(COCC#Cc2cccc(CO)c2)c(=O)[nH]c1=O,,MT-4,EC50,IIIB,WT,MTT,0.003 µM
CC(C)C1=C2C3CCC4[C@@]5(C)CC[C@H](OC(=O)CC(C)(C)C(=O)O)C(C)(C)C5CC[C@@]4(C)[C@]3(C)CC[C@@]2(NC(=O)N2CCC(N)CC2)CC1=O,30% human serum,MT-2,EC50,IIIB,,RT activity,0.2–0.999 µM
CCOC(=O)c1ccccc1NC(=O)Nc1cccc2c(C(=O)C(=O)N3CCN(C(=O)c4ccccc4)C[C@H]3C)c[nH]c12,,HeLa,EC50,,,luciferase / reporter gene,<1 µM
CCc1c(Cc2cc(C)cc(C)c2)n(COCC#Cc2ccc(N)cc2)c(=O)[nH]c1=O,,MT-4,EC50,IIIB,EFV-resistant (K103R V179D P225H),MTT,6 µM
COc1cccc(C(C)c2c(C)c(=O)[nH]c(=O)n2COCc2ccccc2)c1,,MT-4,EC50,IIIB,,MTT,>198 µM
CC(C)C1=C2[C@H]3CC[C@@H]4[C@@]5(C)CC[C@H](OC(=O)[C@H]6C[C@@H](C(=O)O)C6(C)C)C(C)(C)[C@@H]5CC[C@@]4(C)[C@]3(C)CC[C@@]2(CC(=O)NCC(C)(C)NC(=O)c2ccncn2)CC1=O,,MT-2,EC50,92HT599,,p24 / ELISA,<1 µM
CC(C)C1=C2C3CCC4[C@@]5(C)CC[C@H](OC(=O)CC(C)(C)C(=O)O)C(C)(C)C5CC[C@@]4(C)[C@]3(C)CC[C@@]2(NC(=O)NCc2ccncn2)CC1=O,30% human serum,MT-2,EC50,IIIB,,RT activity,<0.199 µM
CCN1c2ncc(CCOc3ccc(-c4ccncc4)cc3C)cc2C(=O)N(C)c2cccnc21,,C8166,EC50,,RT-K103N Y181C,p24,<0.01 µM
Cc1nc(C(=O)N[C@@]23CC[C@]4(C)C(CCC5[C@@]6(C)CC[C@H](OC(=O)CC(C)(C)C(=O)O)C(C)(C)C6CC[C@]54C)C2=C(C(C)C)C(=O)C3)no1,30% human serum,MT-2,EC50,IIIB,,RT activity,<0.199 µM
COc1cc(Cl)ccc1CNC(=O)C[C@@]12CC[C@]3(C)[C@H](CC[C@@H]4[C@@]5(C)CC[C@H](OC(=O)[C@H]6C[C@@H](C(=O)O)C6(C)C)C(C)(C)[C@@H]5CC[C@]43C)C1=C(C(C)C)C(=O)C2,,MT-2,EC50,92HT599,,p24 / ELISA,<1 µM
CC(C)NC(=O)N(C)CCC1CN(Cc2ccc(F)cc2)C(=O)c2c(O)c(=O)n(C(C)C)c(=O)n21,,MT-4,EC95,,,p24,<10 µM
CCC(c1ccccc1C)c1c(C)c(=O)[nH]c(=O)n1COCc1ccccc1,,MT-4,EC50,IIIB,,MTT,>43.12 µM
CCN1c2ncc(CCOc3ccc(C(=O)Nc4ccc(C(=O)O)cc4)cc3C)cc2C(=O)N(C)c2cccnc21,,C8166,EC50,IIIB,,p24,<0.01 µM

The last 5 rows once more:

SMILES | conditions | cells | endpoint | strain or isolate | mutations | method | value
Cc1nc(C(=O)N[C@@]23CC[C@]4(C)C(CCC5[C@@]6(C)CC[C@H](OC(=O)CC(C)(C)C(=O)O)C(C)(C)C6CC[C@]54C)C2=C(C(C)C)C(=O)C3)no1 | 30% human serum | MT-2 | EC50 | IIIB |  | RT activity | <0.199 µM
COc1cc(Cl)ccc1CNC(=O)C[C@@]12CC[C@]3(C)[C@H](CC[C@@H]4[C@@]5(C)CC[C@H](OC(=O)[C@H]6C[C@@H](C(=O)O)C6(C)C)C(C)(C)[C@@H]5CC[C@]43C)C1=C(C(C)C)C(=O)C2 |  | MT-2 | EC50 | 92HT599 |  | p24 / ELISA | <1 µM
CC(C)NC(=O)N(C)CCC1CN(Cc2ccc(F)cc2)C(=O)c2c(O)c(=O)n(C(C)C)c(=O)n21 |  | MT-4 | EC95 |  |  | p24 | <10 µM
CCC(c1ccccc1C)c1c(C)c(=O)[nH]c(=O)n1COCc1ccccc1 |  | MT-4 | EC50 | IIIB |  | MTT | >43.12 µM
CCN1c2ncc(CCOc3ccc(C(=O)Nc4ccc(C(=O)O)cc4)cc3C)cc2C(=O)N(C)c2cccnc21 |  | C8166 | EC50 | IIIB |  | p24 | <0.01 µM